# Experimental data taken from PMC6789456, “Ursolic Acid Derivatives as Potential Agents Against Acanthamoeba Spp” (Pathogens, 2019).
# Columns and labels:
# [1] = test system: Acanthamoeba castellanii Neff; assay: In vitro effect against the trophozoite stage, Alamar Blue assay; format: cell-based; settings: selectivity index, murine macrophages CC50 vs A. castellanii Neff IC50
# Protocol: (§1) The anti-Acanthamoeba activity of molecules was evaluated against the Acanthamoeba castellanii Neff (ATCC 30010) type strain from the American Type Culture Collection and Acanthamoeba griffini obtained in previous studies. Those strains were grown axenically in Peptone Yeast Glucose (PYG) medium (0.75% (w/v) proteose peptone, 0.75% (w/v) yeast extract, and 1.5% (w/v) glucose) containing 40 μg of gentamicin ml−1 (Biochrom AG, Cultek, Granollers, Barcelona, Spain).
# (§2) The anti-Acanthamoeba activities of the compounds were determined by the Alamar Blue assay as previously described. Briefly, Acanthamoeba strains were seeded in duplicate on a 96-well microtiter plate with 50 μL from a stock solution of 10^4 cells mL^−1. Amoebae were allowed to adhere for 15 min and 50 μL of serial dilution series of the eye drop solution was added. Finally, the Alamar Blue assay reagent (Bioresource, Europe, Nivelles, Belgium) was added into each well at an amount equal to 10% of the medium volume. The plates were then incubated for 96 h at 28 °C with a slight agitation and the emitted fluorescence was measured with an Enspire microplate reader (PerkinElmer, Massachusetts, USA) at 570/585 nm.
# Acanthamoeba griffini = assay: as above; format: cell-based; settings: selectivity index, murine macrophages CC50 vs A. griffini IC50
# Protocol: as §1, §2
SMILES,SI for A. Neff [1],SI for A. Griffini (Acanthamoeba griffini)
COC(=O)[C@]12CC[C@@H](C)[C@H](C)C1C1=CCC3[C@@]4(C)CC[C@H](OC(=O)c5ccccc5)C(C)(C)C4CC[C@@]3(C)[C@]1(C)CC2 (stereo partly drawn) [Compound 8],>3.0,>8.7
C[C@@H]1CC[C@]2(C(=O)O)CC[C@]3(C)C(=CCC4[C@@]5(C)CCC(=O)C(C)(C)C5CC[C@]43C)C2[C@H]1C (stereo partly drawn) [Compound 3],>2.9,>9.7
COC(=O)[C@]12CC[C@@H](C)[C@H](C)C1C1=CCC3[C@@]4(C)CC[C@H](OC(C)=O)C(C)(C)C4CC[C@@]3(C)[C@]1(C)CC2 (stereo partly drawn) [Compound 6],>2.7,>11.0
"C[C@H]1[C@H](C)CC[C@]2(C(=O)O)CC[C@]3(C)C(=CC[C@@H]4[C@@]5(C)CC[C@H](O)C(C)(C)[C@@H]5CC[C@]43C)[C@H]12 [Compound 1, Ursolic acid]",0.4,1.2
COC(=O)[C@]12CC[C@@H](C)[C@H](C)C1C1=CCC3[C@@]4(C)CC[C@H](O)C(C)(C)C4CC[C@@]3(C)[C@]1(C)CC2 (stereo partly drawn) [Compound 4],1.2,3.0
CC(=O)O[C@H]1CC[C@@]2(C)C(CC[C@]3(C)C2CC=C2C4[C@@H](C)[C@H](C)CC[C@]4(C(=O)O)CC[C@]23C)C1(C)C (stereo partly drawn) [Compound 2],3.9,8.4
COC(=O)[C@]12CC[C@@H](C)[C@H](C)C1C1=CCC3[C@@]4(C)CC[C@H](OC)C(C)(C)C4CC[C@@]3(C)[C@]1(C)CC2 (stereo partly drawn) [Compound 5],>4.4,>14.5
"COC(=O)[C@]12CC[C@@H](C)[C@H](C)C1C1=CCC3[C@@]4(C)CC[C@H](OC(=O)c5ccc([N+](=O)[O-])cc5)C(C)(C)C4CC[C@@]3(C)[C@]1(C)CC2 (stereo partly drawn) [Compound 7, 3β-(p-nitrobenzoyloxy)-urs-12-en-28-oic acid methyl ester]",>4.7,>14.9
"[H]/N=C(\N/C(=N/[H])NCCCCCCNC(=N)NC(=N)Nc1ccc(Cl)cc1)Nc1ccc(Cl)cc1 [Chlorhexidine, reference compound]",2.5,2.0
